Test results from patent US6525021B1 (priority 1998, dated 2003).

Protein sequences, listed by entry. Tags and fused reporters are not part of them. Lines headed by an entry give the natural chain unless they say otherwise; changes in a name come on top. Residues count along the entry.
UniProt Q6PHU5, 74-825 limits assumed: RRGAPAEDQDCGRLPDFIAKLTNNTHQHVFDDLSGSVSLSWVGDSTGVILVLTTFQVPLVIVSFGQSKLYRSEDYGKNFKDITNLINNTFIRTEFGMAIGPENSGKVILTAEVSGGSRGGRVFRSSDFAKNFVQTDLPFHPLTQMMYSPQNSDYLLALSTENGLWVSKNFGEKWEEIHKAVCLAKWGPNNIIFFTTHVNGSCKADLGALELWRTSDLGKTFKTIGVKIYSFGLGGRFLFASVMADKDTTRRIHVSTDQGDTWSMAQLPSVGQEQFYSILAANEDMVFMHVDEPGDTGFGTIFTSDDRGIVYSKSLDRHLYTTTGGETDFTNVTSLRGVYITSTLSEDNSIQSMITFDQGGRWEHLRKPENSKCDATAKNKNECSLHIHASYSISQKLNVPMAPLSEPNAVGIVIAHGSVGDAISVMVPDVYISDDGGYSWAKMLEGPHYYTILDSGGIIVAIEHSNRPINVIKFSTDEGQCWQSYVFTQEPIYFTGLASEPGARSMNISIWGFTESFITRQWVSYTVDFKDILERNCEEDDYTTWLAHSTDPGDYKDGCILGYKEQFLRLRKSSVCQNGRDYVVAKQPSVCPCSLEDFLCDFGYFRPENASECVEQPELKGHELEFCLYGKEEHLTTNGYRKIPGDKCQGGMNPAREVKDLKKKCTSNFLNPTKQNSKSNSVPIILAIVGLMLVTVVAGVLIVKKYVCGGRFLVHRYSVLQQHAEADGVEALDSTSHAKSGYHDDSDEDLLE
UniProt P20789, whole entry, looked up: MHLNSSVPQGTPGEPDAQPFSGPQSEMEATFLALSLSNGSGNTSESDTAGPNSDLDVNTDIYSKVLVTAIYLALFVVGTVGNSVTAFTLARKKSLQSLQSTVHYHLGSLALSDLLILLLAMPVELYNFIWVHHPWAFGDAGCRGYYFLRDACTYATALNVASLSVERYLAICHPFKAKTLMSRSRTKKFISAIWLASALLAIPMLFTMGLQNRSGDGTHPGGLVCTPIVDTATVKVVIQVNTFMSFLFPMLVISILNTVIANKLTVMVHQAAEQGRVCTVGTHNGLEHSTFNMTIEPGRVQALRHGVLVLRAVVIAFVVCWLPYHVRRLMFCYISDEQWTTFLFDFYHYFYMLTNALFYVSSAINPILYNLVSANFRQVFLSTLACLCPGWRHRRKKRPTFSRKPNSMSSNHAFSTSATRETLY
UniProt Q63384: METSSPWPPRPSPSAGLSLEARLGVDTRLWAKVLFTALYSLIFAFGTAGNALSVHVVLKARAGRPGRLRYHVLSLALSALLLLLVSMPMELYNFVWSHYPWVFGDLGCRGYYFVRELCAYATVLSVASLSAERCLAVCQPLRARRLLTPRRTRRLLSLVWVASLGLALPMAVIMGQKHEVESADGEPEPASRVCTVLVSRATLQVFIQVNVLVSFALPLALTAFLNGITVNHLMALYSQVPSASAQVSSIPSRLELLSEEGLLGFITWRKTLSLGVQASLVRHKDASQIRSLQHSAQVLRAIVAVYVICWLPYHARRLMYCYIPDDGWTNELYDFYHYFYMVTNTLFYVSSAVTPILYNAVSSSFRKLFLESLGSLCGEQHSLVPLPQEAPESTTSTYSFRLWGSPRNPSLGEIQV

Columns and labels:
[1] = acute pain (tail-flick), intrathecal; details: i.t.; for tail-flick (withdrawal) latency: 54 C water bath
[2] = persistent pain (formalin test), intrathecal; details: for ED50, Formalin Test (phase 2): estimated
[3] = toxicity testing: rectal temperature, i.t. (hypothermia); details: for time of maximal hypothermic effects post i.t. injection / doses causing hypothermia, as multiple of ED50 / TD50 for hypothermic effect: i.t.; for doses causing hypothermia, as multiple of ED50: FIG. 16; for TD50 for hypothermic effect: estimated
[4] = audiogenic seizures in Frings mice, i.c.v.; details: for P.I. (Protective index = TD50/ED50) / X more potent than NT / ED50, audiogenic seizures / block of audiogenic seizures: i.c.v.; for P.I. (Protective index = TD50/ED50) / X more potent than NT / ED50, audiogenic seizures: Frings AGS mice; for ED50, audiogenic seizures: 60 min; for block of audiogenic seizures: Frings mice
[5] = rotorod test of motor impairment in Frings mice, i.c.v.; details: Frings AGS mice, 15 min, listed as CGX-1160
[6] = chronic inflammatory allodynia (CFA model), von Frey; details: for ED50, CFA-Induced Allodynia Test: estimated
[7] = D-amphetamine-stimulated locomotor activity
[8] = proteolytic degradation (preliminary data); details: compared with non-glycosylated analog
[9] = biological target: solubilized mouse neurotensin type 3 receptor (mNTR3) (Mus musculus, UniProt Q6PHU5); assay: binding on CHAPS-solubilized mouse brain extracts; details: read-out: IC50 mNTR3, 0.2 nM radioligand
rNTR1 = rNTR1 (Rattus norvegicus, UniProt P20789); assay: phosphoinositides determination (IP accumulation), CHO cells expressing rNTR1; format: cell-based
[10] = toxicity testing: accelerating rotorod, i.t. (motor impairment)
[11] = biological target: rat neurotensin type 1 receptor (rNTR1) (Rattus norvegicus, UniProt P20789); assay: competition binding with [125I-Tyr3]neurotensin1-13, CHO cell membranes; details: read-out: IC50 rNTR1; 0.4 nM [125I-Tyr3]neurotensin1-13, CHO membranes
[12] = biological target: rat neurotensin type 2 receptor (rNTR2) (Rattus norvegicus, UniProt Q63384); assay: as above; details: read-out: IC50 rNTR2; 0.4 nM [125I-Tyr3]neurotensin1-13, CHO membranes
[13] = neuropathic pain (partial sciatic nerve ligation), von Frey mechanical allodynia
[14] = acute pain (hotplate), icv
[15] = accelerating rotarod before hotplate, icv; details: 10 fmol-10 nmol
[16] = biological activity of contulakin-G analogs by icv injection in mice; format: in vivo
[17] = animal models of acute and chronic pain

## CC[C@H](C)[C@H](NC(=O)[C@H](Cc1ccc(O)cc1)NC(=O)[C@@H]1CCCN1C(=O)[C@H](CCCCN)NC(=O)[C@H](CCCCN)NC(=O)[C@@H](NC(=O)[C@H](C)NC(=O)[C@H](CC(N)=O)NC(=O)[C@H](CO)NC(=O)CNC(=O)CNC(=O)[C@H](CCC(=O)O)NC(=O)[C@H](CCC(=O)O)NC(=O)[C@H](CO)NC(=O)[C@@H]1CCC(=O)N1)[C@@H](C)O[C@H]1O[C@H](CO)[C@H](O)[C@H](O[C@@H]2O[C@H](CO)[C@H](O)[C@H](O)[C@H]2O)[C@H]1NC(C)=O)C(=O)N[C@@H](CC(C)C)C(=O)O [contulakin-G]
[1]
  tail-flick (withdrawal) latency: dose-dependently increased
[1]; highest dose tested (100 pmol)
  time post injection at which latency returned to baseline: 24 h
  withdrawal times at 5 hour post injection: elevated
[1]; earliest time tested
  time to peak effect in tail-flick: ≤ 30 min
[2]; [17]
  typical analgesic potency relative to CGX-1063: 10 fold
  typical analgesic potency relative to NT: 1000 times
[2]; i.t.
  ED50 phase 1 of the formalin test: 30 to 40 pmol
  PI (TD50/ED50), Formalin Test (phase 2): 10-20
  potency relative to CGX-1063, formalin phase 2: 10 times
  potency relative to NT, formalin phase 2: 600-700 times
  ED50, Formalin Test (phase 2): 1 pmol
[3]; 100 pmol i.t.
  time by which hypothermic effect resolved: ≤ 60 min
[3]; 500 pmol i.t.
  hypothermic effect at highest dose: had not resolved by six hours post-injection
[3]
  time of maximal hypothermic effects post i.t. injection: 30 min
  doses causing hypothermia, as multiple of ED50: 100-500 fold
  TD50 for hypothermic effect: 100 pmol
[4]; 100 pmol i.c.v., 30 minutes
  activity against audiogenic seizures at 30 minutes: no activity
[4]; 100 pmol i.c.v., 60 minutes
  protection against audiogenic seizures: 100%
[4]; 100 pmol i.c.v., 4 hours
  protection against audiogenic seizures: 50%
[4]
  P.I. (Protective index = TD50/ED50): >28
  X more potent than NT: ≈140
  ED50, audiogenic seizures: 7.1 pmol
  block of audiogenic seizures: potently and dose-dependently blocked
[5]
  TD50, motor toxicity: > 200 pmol
[6]; 100 fmol i.t.
  contralateral sensitivity to mechanical pressure: unaltered
[6]; i.t.
  PI (TD50/ED50), CFA-Induced Allodynia Test: >100
  dose that completely reversed CFA-induced mechanical allodynia: 100 fmol
  reversal of CFA-induced mechanical allodynia: extremely potent and dose-dependent reversal
  ED50, CFA-Induced Allodynia Test: <0.1 pmol
[7]; 100 pmol i.c.v.
  reduction in basal locomotor activity: did not reach statistical significance
[7]; 100 pmol i.c.v. pretreatment, D-amphetamine 3 mg/kg i.p.
  amphetamine-stimulated increases in distance traveled and time spent ambulating: significantly reduced
[8]
  proteolytic degradation: inhibited by the presence of the glycan moiety

## CC[C@H](C)[C@H](NC(=O)[C@H](Cc1ccc(O)cc1)NC(=O)[C@@H]1CCCN1C(=O)[C@H](CCCCN)NC(=O)[C@H](CCCCN)NC(=O)[C@@H](NC(=O)[C@H](C)NC(=O)[C@H](CC(N)=O)NC(=O)[C@H](CO)NC(=O)CNC(=O)CNC(=O)[C@H](CCC(=O)O)NC(=O)[C@H](CCC(=O)O)NC(=O)[C@H](CO)NC(=O)[C@@H]1CCC(=O)N1)[C@@H](C)O)C(=O)N[C@@H](CC(C)C)C(=O)O [Thr10-contulakin-G]
[9]
  IC50: 71 nM
[1]
  tail-flick (withdrawal) latency: dose-dependent, though more variable increase
rNTR1
  mode of action on CHO cells expressing the rNTR1: acted as agonists
rNTR1; read-out: agonist potency, CHO cells expressing rNTR1
  EC50: 0.6 nM
[2]; 10 vs 100 pmol, it
  first phase response time of the formalin test: the lower dose (10 pmol) was more effective
[2]; i.t.
  ED50 phase 1 of the formalin test: did not reach the 50% antinociception threshold
  PI (TD50/ED50), Formalin Test (phase 2): 1-2
  ED50, Formalin Test (phase 2): 10 to 20 pmol
[10]; 1 pmol i.t.
  motor toxicity at the lowest dose tested: no motor toxicity
[10]; 10 pmol i.t., resolved by 60 minutes
  duration of motor toxicity: 30 min
[11]
  IC50: 79 nM
[12]
  IC50: 170 nM
[13]; 100 pmol intrathecal
  mechanical threshold on the contralateral side: not significantly altered
[13]; intrathecal, both hindpaws
  withdrawal threshold in sham-operated animals: uniformly increased in both hindpaws
[3]; 100 pmol i.t.
  duration of drop in body temperature: 2 to 3 h
[3]
  time of maximal hypothermic effects post i.t. injection: 30 min
  doses causing hypothermia, as multiple of ED50: 10 fold
  TD50 for hypothermic effect: 100 pmol
[4]
  X more potent than NT: ≈37
  ED50, audiogenic seizures: 27.0 pmol
  block of audiogenic seizures: potently and dose-dependently blocked
[4]; listed as CGX-1063
  P.I. (Protective index = TD50/ED50): 14 and ≈14
[6]; 10 pmol i.t.
  contralateral side relative to pre-drug baseline: also elevated
[6]; i.t.
  PI (TD50/ED50), CFA-Induced Allodynia Test: 1-5
  fold less potent than CGX-1160 in CFA model: approximately 100 fold
  minimally effective dose, CFA-induced allodynia: 10 pmol
  reversal of CFA-induced mechanical allodynia: completely reversed
  ED50, CFA-Induced Allodynia Test: <10 pmol
[14]
  effective dose range in hot plate model: low picomole to high femtomole range
[14]; 10 fmol-10 nmol
  latency to first response on hotplate: dose-dependently increased
  latency to the first hindpaw lick on hotplate: dose-dependently increased
[15]
  latency to first fall on the rotarod: dose-dependently decreased

## Ser10-contulakin-G containing the native glycosylation on Ser10
[16]; icv, mice
  activity compared with native contulakin-G: slightly more active
[16]; three week old mice, 1 nmole and 300 pmole icv
  time mice were drowsy: 100 min
